A mixed list of measured activities; the numbers were collected in NIAID ChemDB.

Shared fields: growth or infection tests

Conditions beyond the fields shown may differ between rows.

SMILES | endpoint | tested at | strain or isolate | organism | method | cell line | result
Oc1ccccc1N=Cc1ccccc1 | MIC99 | - | L-28/02 | Cryptococcus gattii | - | - | 8 µg/mL
CCOC(=O)c1ccc(OCCC2CCN(c3ccc(C)nn3)CC2)cc1 | EC50 | - | 1794 (ICAM-1 receptor group 40) | Rhinovirus | neutral red | KB | 0.001 µM
O=S(=O)(O)c1ccc2ccc(S(=O)(=O)O)cc2c1 | inhibition | 5 µg/mL | - | Herpes simplex virus | cytopathic effect | Human amnion AV3 cells | 0%
CCc1cn([C@@H]2O[C@H](CO)[C@@H](O)[C@@H]2O)c(=O)[nH]c1=O | inhibition | 1000 µg/mL | OKA | Varicella zoster virus | plaque count | HELF | 53%
CC(C)(O)c1cn(-c2ccc3ccccc3c2)nn1 | inhibition | 2048 µg/mL | URM 4607 | Candida parapsilosis | broth dilution | - | 0%
Cc1cn([C@@H]2O[C@H](CO)[C@@H](O)[C@@H]2F)c(=O)nc1N | inhibition | 0.1 µg/mL | Asahikawa | Varicella zoster virus | plaque count | HELF | 100%
O=C1C(c2[nH]c3ccc(S(=O)(=O)O)cc3c2O)=Nc2ccc(S(=O)(=O)O)cc21 | inhibition | 5 µg/mL | TYPE 3 | Adenovirus | cytopathic effect | Human amnion AV3 cells | 0%
Nc1nc2c(ncn2COCCO)c(=O)[nH]1 | inhibition | 0.1 µg/mL | Asahikawa | Varicella zoster virus | plaque count | HELF | 0%
CCOC(=O)c1c(C)nc(NCCCCNc2ccnc3cc(Cl)ccc23)nc1-c1ccccc1 | MIC99 | - | LMM 818 | Cryptococcus gattii | - | - | 11.3 µg/mL
C/C=C\[C@@H]1C[C@H](C(=O)O)N[C@H]1[C@@H](NC(C)=O)[C@](C)(CCC)OC | EC50 | - | H1N1 isolate C9D | Influenza A virus | plaque count | MDCK | 0.15 µg/mL
CC(C)(O)c1cn(-c2cccc3ccccc23)nn1 | inhibition | 2048 µg/mL | URM 4261 | Candida parapsilosis | broth dilution | - | 0%
CCC(CC)[C@H](NC(C)=O)[C@@H]1[C@H](O)[C@@H](C(=O)O)C[C@H]1N=C(N)N | EC50 | - | Influenza A/Beijing/32/92 (H3N2) | Influenza A virus | - | MDCK | 0.07 µM
O=c1[nH]c(=O)n([C@@H]2O[C@H](CO)[C@@H](O)[C@@H]2O)cc1/C=C/Cl | inhibition | 0.0001 µg/mL | Kawaguchi | Varicella zoster virus | plaque count | HELF | 15%
O=S(=O)([O-])c1cc(S(=O)(=O)[O-])c2cc(NS(=O)(=O)c3ccccc3)ccc2c1 | inhibition | 10 µg/mL | - | Herpes simplex virus | cytopathic effect | Human conjunctiva cells | 0%
Oc1ccccc1N=Cc1cccc(O)c1O | MIC99 | - | ATCC 24065 | Cryptococcus gattii | - | - | 4 µg/mL
C=CCc1ccc(O)c(OC)c1 | MIC90 | - | 2852 | Candida tropicalis | turbidity | - | 500 µg/mL
O=C(Nc1c(S(=O)(=O)[O-])cc2cc(S(=O)(=O)[O-])cc(O)c2c1O)c1ccccc1 | inhibition | 50 µg/mL | TYPE 3 | Adenovirus | cytopathic effect | Human amnion AV3 cells | 83%
C=Cc1cn([C@@H]2O[C@H](CO)[C@@H](O)[C@@H]2O)c(=O)[nH]c1=O | inhibition | 0.01 µg/mL | Ohtomo | Varicella zoster virus | plaque count | HELF | 74%
Cc1cc(-c2ccc(N=Nc3c(N)c(S(=O)(=O)O)cc4cc(S(=O)(=O)O)ccc34)c(C)c2)ccc1N=Nc1c(N)ccc2cc(S(=O)(=O)O)ccc12 | inhibition | 50 µg/mL | TYPE 3 | Adenovirus | cytopathic effect | Human amnion AV3 cells | 0%
CC(C)(O)c1cn(-c2ccccc2)nn1 | inhibition | 2048 µg/mL | URM 4261 | Candida parapsilosis | broth dilution | - | 0%
O=C(O)c1cc(S(=O)(=O)[O-])ccc1O | inhibition | 5 µg/mL | TYPE 3 | Adenovirus | cytopathic effect | Human embryonic lung cells | 0%
CC(C)(O)c1cn(-c2ccc([N+](=O)[O-])cc2)nn1 | inhibition | 2048 µg/mL | URM 4817 | Candida albicans | broth dilution | - | 0%
O=S(=O)(O)c1cc(O)c2c(O)cc(S(=O)(=O)O)cc2c1 | inhibition | 5 µg/mL | - | Rhinovirus | cytopathic effect | Human embryonic lung cells | 10%
CCOC(=O)c1c(C)nc(NCCCCNc2ccnc3cc(Cl)ccc23)nc1-c1ccc(F)cc1 | MIC99 | - | 135L/03 | Cryptococcus gattii | - | - | 8 µg/mL
O=C(Nc1cc(S(=O)(=O)[O-])cc2cc(S(=O)(=O)[O-])ccc12)c1ccccc1 | inhibition | 50 µg/mL | - | Herpes simplex virus | cytopathic effect | Human conjunctiva cells | 0%
CCOC(=O)c1c(C)nc(NCCCCNc2ccnc3cc(Cl)ccc23)nc1-c1ccccc1[N+](=O)[O-] | MIC99 | - | LMM 818 | Cryptococcus gattii | - | - | 11.3 µg/mL
Cc1cc(CCCOc2c(C)cc(-c3noc(C(F)(F)F)n3)cc2C)on1 | EC50 | - | Isolate 10 | Rhinovirus | cytopathic effect / visual reading | OHIO HELA-I | 2.15 µg/mL
O=C(Nc1cc(S(=O)(=O)O)cc2cc(S(=O)(=O)O)cc(O)c12)c1ccccc1 | inhibition | 10 µg/mL | - | Herpes simplex virus | cytopathic effect | Human conjunctiva cells | 0%

The last 3 rows once more:

| SMILES | endpoint | tested at | strain or isolate | organism | method | cell line | result |
|---|---|---|---|---|---|---|---|
| CCOC(=O)c1c(C)nc(NCCCCNc2ccnc3cc(Cl)ccc23)nc1-c1ccccc1[N+](=O)[O-] | MIC99 | - | LMM 818 | Cryptococcus gattii | - | - | 11.3 µg/mL |
| Cc1cc(CCCOc2c(C)cc(-c3noc(C(F)(F)F)n3)cc2C)on1 | EC50 | - | Isolate 10 | Rhinovirus | cytopathic effect / visual reading | OHIO HELA-I | 2.15 µg/mL |
| O=C(Nc1cc(S(=O)(=O)O)cc2cc(S(=O)(=O)O)cc(O)c12)c1ccccc1 | inhibition | 10 µg/mL | - | Herpes simplex virus | cytopathic effect | Human conjunctiva cells | 0% |

MIC50, MIC90 and the like: level of inhibition, or share of isolates inhibited. ECn is the concentration giving n% inhibition of infection, replication or growth. Percent inhibition refers to the dose given; in toxicity tests it is the harm to the cells. Blank or dashed fields: not listed here.